Results deposited as PubChem BioAssay AID1259414 (Drosophila RNAi Screening Center, 2018)

- Assay: 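Fly genes that alter Wolbachia amount inside host cells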 (primary screen)
- Cells: Drosophila JW18 cells infected with Wolbachia
- Reagent: long dsRNA against Drosophila genes, 0.25 µg dsRNA per well of a 384-well plate
- Time to read-out: 5 days
- Conditions: cells persistently infected with Wolbachia before knock-down; no added drug
- Detection: 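Automated imaging of bacterial rRNA staining divided by host cell count, reported as plate-normalised robust z-score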
- Scale: Wolbachia per cell robust z: higher = more Wolbachia per host cell than the plate typical
- Active means: 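Active if absolute robust z reaches 1.5 in two or more of three replicates, leaving out multi- or no-target dsRNAs, genes unexpressed in JW18 and A1 wells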
In all, the deposit lists about 24,000 reagents; below is an unselected part of those with a known target gene and a result. Over the whole deposit, about 1,210 (5%) are marked active. 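Inactive calls also include excluded dsRNAs with several or no targets, genes unexpressed in JW18, and well A1, regardless of score.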 The numbers tell different reagents against one gene apart. Names joined by + are all predicted targets of the reagent. Reagent sequences are not shown.

The first 3 records, ahead of the listing:
| gene | dsRNA no. | Wolbachia per cell robust z, rep 1 | Wolbachia per cell robust z, rep 2 | Wolbachia per cell robust z, rep 3 | Outcome |
| --- | --- | --- | --- | --- | --- |
| CG17806 | 1 | -1.76 | 0.292 | -0.0567 | inactive |
| Cad96Cb (Cadherin 96Cb) | 1 | 0.0792 | -0.183 | 0.876 | inactive |
| Cad96Cb (Cadherin 96Cb) | 2 | 0.0916 | -1.88 | 0.458 | inactive |

The list itself, from the first entry:
| gene | dsRNA no. | Wolbachia per cell robust z, rep 1 | Wolbachia per cell robust z, rep 2 | Wolbachia per cell robust z, rep 3 | Outcome |
| --- | --- | --- | --- | --- | --- |
| CG17806 | 1 | -1.76 | 0.292 | -0.0567 | inactive |
| Cad96Cb (Cadherin 96Cb) | 1 | 0.0792 | -0.183 | 0.876 | inactive |
| Cad96Cb (Cadherin 96Cb) | 2 | 0.0916 | -1.88 | 0.458 | inactive |
| Cad96Cb (Cadherin 96Cb) | 3 | -0.147 | 0.531 | 0.941 | inactive |
| Ubx (Ultrabithorax) | 1 | -2.61 | -0.507 | 0.484 | inactive |
| Ubx (Ultrabithorax) | 2 | -0.136 | 1.42 | -0.331 | inactive |
| Ubx (Ultrabithorax) | 3 | -0.0502 | -2.14 | -0.52 | inactive |
| CG2225 | 1 | -3.86 | 0.964 | 0.152 | inactive |
| CG2225 | 2 | 0.468 | 0.608 | -0.0121 | inactive |
| px (plexus) | 1 | 0.739 | 1.11 | -0.687 | inactive |
| px (plexus) | 2 | -0.0609 | 0.936 | 0.0157 | inactive |
| Cow | 1 | -1.62 | -1.31 | -1.1 | inactive |
| Cow | 2 | 0.78 | -1.57 | 1.01 | inactive |
| Cow | 3 | 0.326 | 0.174 | -0.231 | inactive |
| CG7423 | 1 | 0.514 | 0.704 | 0.873 | inactive |
| CG11584 | 1 | 0.416 | 1.06 | 0.0455 | inactive |
| CG11584 | 2 | 0.415 | 0.131 | 0.982 | inactive |
| CR18275 (pseudo) | 1 | -3.85 | 0.544 | -0.0682 | inactive |
| CR18275 (pseudo) | 2 | -5.94 | 0.309 | -0.804 | inactive |
| Cyp303a1 (Cytochrome P450 303a1) | 1 | 1.13 | 0.223 | -0.00937 | inactive |
| Gr94a (Gustatory receptor 94a) | 1 | 0.318 | 1.24 | 0.696 | inactive |
| CG30265 + CG12490 | 1 | 0.489 | 0.556 | -0.0873 | inactive |
| PolD3 (DNA polymerase delta subunit 3) | 1 | -9.85 | -0.031 | -9.48 | inactive |
| PolD3 (DNA polymerase delta subunit 3) | 2 | -0.806 | 0.39 | 0.271 | inactive |
| Rab9D + Rab9E + Rab9Db + 1 more | 1 | -3 | -0.625 | 2.5 | inactive |
| TotA (Turandot A) | 1 | 0.023 | 0.498 | 0.813 | inactive |
| CapaR (Capability receptor) | 1 | 0.0523 | 0.771 | 1.73 | inactive |
| CG13028 | 1 | 0.358 | 0.725 | -0.0645 | inactive |
